This is an account of results in paper PMC7918733, “Biological Profiling of Semisynthetic C19-Functionalized Ferruginol and Sugiol Analogues” (Antibiotics, 2021).

Data set [1] has as its system L. infantum promastigotes. Also noted: method as in PMID 30840453. The settings on record: C18-congeners, ratio CC50 / IC50; cited from earlier work.
Data set [2] relates to L. donovani promastigotes. The settings on record: C18-congeners, ratio CC50 / IC50; cited from earlier work.
Data set [3] deals with L. amazonensis promastigotes. Also on record: method as in PMID 30840453. The settings on record: C18-congeners, ratio CC50 / IC50; cited from earlier work.
Data set [4] relates to L. guyanensis promastigotes. Also noted: method as in PMID 30840453. The settings on record: C18-congeners, ratio CC50 / IC50; cited from earlier work.
The subject of data set [5] is L. infantum amastigotes. In words: Intracellular amastigote assay (fluorometric test). Format: cell-based. The settings on record: SI = CC50/IC50 (J774).
The test system of data set [6] is L. amazonensis amastigotes. Put plainly: Intracellular amastigote assay (fluorometric test). The class given is cell-based. The settings on record: SI = CC50/IC50 (J774).
In data set [7] the test system is P. falciparum 3D7 strain. In words: Antiplasmodial DNA stain-based growth assay. Format: cell-based, Plasmodium falciparum. The settings on record: EC50 lower values of cytotoxic activity/EC50 antimalarial activity. On the procedure: (§1) Assays were performed by using previously described DNA stain-based assay and methods, including cytotoxicity assays.
Data set [8] concerns P. falciparum K1 strain. Put plainly: Antiplasmodial DNA stain-based growth assay. Format: cell-based, Plasmodium falciparum. The settings on record: EC50 lower values of cytotoxic activity/EC50 antimalarial activity. How it is done:
as §1

Data set [9] relates to L. infantum promastigotes. In words: Antileishmanial in vitro promastigote assay. The settings on record: SI = CC50/IC50 (J774).
For data set [10], the system named is L. donovani promastigotes. In words: Antileishmanial in vitro promastigote assay. The settings on record: SI = CC50/IC50 (J774).
The test system of data set [11] is L. amazonensis promastigotes. In words: Antileishmanial in vitro promastigote assay. The settings on record: SI = CC50/IC50 (J774).
Data set [12] has as its system L. guyanensis promastigotes. Put plainly: Antileishmanial in vitro promastigote assay. The settings on record: SI = CC50/IC50 (J774).

Like-named read-outs stand apart in the source and are kept apart here.

`COC(=O)[C@]1(C)CCC[C@]2(C)c3cc(O)c(C(C)C)cc3CC[C@@H]12` [Compound 12b]: the “L. infantum SI” value in [1] is 6.8. Besides, the “L. donovani SI” value in data set [2] is 3.7. Moreover, in [3], the “L. amazonensis SI” value is 8.7. The “L. guyanensis SI” value in data set [4] was 5.8.
Regarding `COC(=O)[C@@]1(C)CCC[C@]2(C)c3cc(C(C)=O)c(C(C)C)cc3CC[C@@H]12` [Compound 9], the figures for the “L. infantum SI” value in [5] and in data set [9] were greater than 8.8 and greater than 10.0, respectively. Further, the figures for the “L. amazonensis SI” value in data set [6] and in [11] were greater than 6.6 and greater than 14.0, respectively. In data set [7], the “P. falciparum 3D7 SI” value is listed as 1.9. Also, the “P. falciparum K1 SI” value in [8] is 2.0. Further, the “L. donovani SI” value in data set [10] was greater than 22.0. The “L. guyanensis SI” value in data set [12] was greater than 10.7.
Turning to `CC(C)c1cc2c(cc1O)[C@@]1(C)CCC[C@@](C)(CO)[C@@H]1CC2=O` [Compound 15b], in [1], the “L. infantum SI” value is listed as 1.5. The “L. donovani SI” value in data set [2] was 0.7. Moreover, the “L. amazonensis SI” value in data set [3] is listed as 1.4. The “L. guyanensis SI” value in data set [4] is on record as 0.9.
As to `COC(=O)[C@@]1(C)CCC[C@]2(C)c3cc(OC(C)=O)c(C(C)C)cc3C(=O)C[C@@H]12` [Compound 11], in data set [7], the “P. falciparum 3D7 SI” value is reported as 3.5.
Regarding `CCCCCCCCCCCCCCCCOP(=O)([O-])OCC[N+](C)(C)C` [Miltefosine, reference compound], the “L. infantum SI” value in [5] is listed as 2.3; in data set [9] it was 40.1. Besides, the “L. amazonensis SI” value in data set [6] came out at 8.2; in [11], 2.9. Besides, in data set [10], the “L. donovani SI” value was found to be 909. Also, the “L. guyanensis SI” value in data set [12] turned out to be 7.5.
Consider `CC(C)c1cc2c(cc1O)[C@@]1(C)CCC[C@@](C)(CO)[C@@H]1CC2` [Compound 14b], for which, in data set [1], the “L. infantum SI” value is 33.4. Also, the “L. donovani SI” value in data set [2] is given as 1.7. Moreover, the “L. amazonensis SI” value in [3] is 3.0. Also, the “L. guyanensis SI” value in data set [4] was 1.9.
For `COC(=O)[C@]1(C)CCC[C@]2(C)c3cc(OC(C)=O)c(C(C)C)cc3C(=O)C[C@@H]12` [Compound 11b], the “L. infantum SI” value in [1] is reported as 25.4. The “L. donovani SI” value in data set [2] is given as 4.1. The “L. amazonensis SI” value in data set [3] is 27.4. Also, the “L. guyanensis SI” value in [4] is given as 13.6.
`COC(=O)[C@]1(C)CCC[C@]2(C)c3cc(C(C)=O)c(C(C)C)cc3CC[C@@H]12` [Compound 9b]: the “L. infantum SI” value in [1] was 51.8. Also, the “L. donovani SI” value in [2] was 8.8. The “L. amazonensis SI” value in [3] is 11.2. The “L. guyanensis SI” value in [4] is recorded as 9.1.
On to `COC(=O)[C@@]1(C)CCC[C@]2(C)c3cc(OC(C)=O)c(C(C)C)cc3CC[C@@H]12` [Compound 10], for which the “P. falciparum K1 SI” value in data set [8] was found to be 8.1. Moreover, the “L. infantum SI” value in data set [9] was greater than 8.4. Besides, the “L. donovani SI” value in data set [10] is reported as greater than 7.7. Also, the “L. amazonensis SI” value in [11] was greater than 4.1.
Turning to `COC(=O)[C@]1(C)CCC[C@]2(C)c3cc(OC(C)=O)c(C(C)C)cc3CC[C@@H]12` [Compound 10b], in data set [1], the “L. infantum SI” value is reported as 20.4. Also, the “L. donovani SI” value in data set [2] is recorded as 3.3. The “L. amazonensis SI” value in data set [3] is 8.2. In addition, the “L. guyanensis SI” value in [4] is 4.8.
